Measurements reported in US20240426776A1, “RAPID DIFFERENTIATION OF ANTIBIOTIC-SUSCEPTIBLE AND -RESISTANT BACTERIA THROUGH MEDIATED EXTRACELLULAR ELECTRON TRANSFER” (priority 2021, published 2024).

Test system: Staphylococcus aureus (strains 29213 and 43300)
Assay: READAS electrochemical current response with PMS mediator (ASIn)
Assay type: cell-based
Details: for t6σ (READAS response time): tobramycin

NC[C@H]1O[C@H](O[C@H]2[C@H](O)[C@@H](O[C@H]3O[C@H](CO)[C@@H](O)[C@H](N)[C@H]3O)[C@H](N)C[C@@H]2N)[C@H](N)C[C@@H]1O [Tobramycin, tobramycin]
t6σ (READAS response time) (strain 29213 (susceptible)): 12 to 21 min | ASIn analysis time (strain 29213 (susceptible), tobramycin 10× (160 μg/mL)): (47-70 min) | t6σ (READAS response time) (strain 43300 (resistant)): 7 to 37 min | ASIn analysis time (strain 43300 (resistant), tobramycin 10× (160 μg/mL)): (33-78 min) | ASIn analysis time for classifying the strains as resistant or susceptible (strains 29213 and 43300, tobramycin 10× (160 μg/mL), oxacillin 20× (120 μg/mL)): 33 to 78 min
